Results of unrelated studies side by side (data: NIAID ChemDB).

Common to all: growth or infection tests; organism: Mycobacterium fortuitum

Two numbers with a dash give a range or band.

smiles,strain or isolate,measure,read by,result
N/C(=N\N=C\c1cccc2ccccc12)c1ccccn1,,EC50,,>1000 µM
CC[C@H]1OC(=O)[C@H](C)C(=O)[C@H](C)[C@@H](O[C@@H]2O[C@H](C)C[C@H](N(C)C)[C@H]2O)[C@](C)(OC)C[C@@H](C)C(=O)[C@H](C)[C@H]2N(CCCCn3cnc(-c4cccnc4)c3)C(=O)O[C@]12C,48 strains,MIC90,,>64 µg/mL
CN1CCN(c2cc3c(cc2F)c(=O)c(C(=O)O)cn3-c2ccc(F)cc2)CC1,10 strains,MIC,,2 µg/mL
CCC(C)(C)c1ccc(/C=N/N=C(\N)c2ccccn2)cc1,,MIC,,6–12.5 µg/mL
CN[C@@H]1[C@@H](O)[C@@H](O[C@@H]2[C@@H](O)[C@H](O[C@H]3O[C@H](CN)CC[C@H]3N)[C@@H](N)C[C@H]2N)OC[C@]1(C)O,18 strains,MIC50,,8 µg/mL
C[C@H]1NCc2cc(-c3ccc4c(=O)c(C(=O)O)cn(C5CC5)c4c3OC(F)F)ccc21,10 strains,MIC50,,0.13 µg/mL
CO[C@H]1/C=C/O[C@@]2(C)Oc3c(C)c(O)c4c(O)c(c(/C=N/N5CCN(C)CC5)c(O)c4c3C2=O)NC(=O)/C(C)=C\C=C\[C@H](C)[C@H](O)[C@@H](C)[C@@H](O)[C@@H](C)[C@H](OC(C)=O)[C@@H]1C,20 strains,MIC90,,100 µg/mL
CN(C)[C@@H]1C(=O)C(C(N)=O)=C(O)[C@@]2(O)C(=O)C3=C(O)c4c(O)cccc4[C@@](C)(O)[C@H]3C[C@@H]12,,MIC50,,>64 µg/mL
CCNCC1CCN(c2c(F)cc3c(=O)c(C(=O)O)cn(CC)c3c2F)C1,19 strains,MIC90,,2 µg/mL
NCC[C@H](O)C(=O)N[C@@H]1C[C@H](N)[C@@H](O[C@H]2O[C@H](CN)[C@@H](O)[C@H](O)[C@H]2O)[C@H](O)[C@H]1O[C@H]1O[C@H](CO)[C@@H](O)[C@H](N)[C@H]1O,,MIC50,,2 µg/mL
CC[C@H]1OC(=O)[C@H](C)[C@@H](O[C@H]2C[C@@](C)(OC)[C@@H](O)[C@H](C)O2)[C@H](C)[C@@H](O[C@@H]2O[C@H](C)C[C@H](N(C)C)[C@H]2O)[C@](C)(O)C[C@@H](C)CN(C)[C@H](C)[C@@H](O)[C@]1(C)O,48 strains,MIC90,,>64 µg/mL
CC1(C)NC(=S)NC1=S,CA10,MIC,,>100 µg/mL
CCN1CCN(c2nc3c(cc2F)c(=O)c(C(=O)O)cn3CC)CC1,ATCC 6841,MIC,,0.5 µg/mL
CC[C@H](C)N1CCN(c2cc(=O)c3nc4c(oc3c2)c2c(=O)c3c(O)c(C)c5c(c34)=C(O)[C@@](C)(O/C=C/[C@H](OC)[C@@H](C)[C@@H](OC(C)=O)[C@H](C)[C@H](O)[C@H](C)[C@@H](O)[C@@H](C)/C=C/C=C(/C)C(=O)N2)O5)CC1,20 strains,MIC90,,>100 µg/mL
N/C(=N\N=C1CCCCCCCCCCC1)c1ccccn1,,EC50,,>100 µM
CCOc1c(N2CCC(N)C2)c(F)cc2c(=O)c(C(=O)O)cn(C3CC3)c12,ATCC 6841,MIC,,0.06 µg/mL
CC(C)(C)c1ccc(/C=N/N=C(\N)c2ccccn2)cc1,,MIC,,6–12.5 µg/mL
CN1CCN(c2c(F)cc3c(=O)c(C(=O)O)cn(CCF)c3c2F)CC1,10 strains,MIC,,8 µg/mL
CN1C(=S)NC(C)(C)C1=S,CA10,MIC,,>100 µg/mL
CC1COc2c(N3CCN(C)CC3)c(F)cc3c(=O)c(C(=O)O)cn1c23,10 strains,MIC,,1 µg/mL
C[C@H]1c2cccc(O)c2C(O)=C2C(=O)[C@]3(O)C(O)=C(C(N)=O)C(=O)[C@@H](N(C)C)[C@@H]3[C@@H](O)[C@@H]21,18 strains,MIC50,,8 µg/mL
O=C1C(=O)N(c2ccccc2)C(=S)N1c1ccccc1,CA10,MIC,,>100 µg/mL
CNCC1CCN(c2c(F)cc3c(=O)c(C(=O)O)cn(C4CC4)c3c2F)C1,ATCC 6841,MIC,,0.06 µg/mL
CN1CCN(c2cc3c(cc2F)c(=O)c(C(=O)O)cn3-c2ccc(F)cc2)CC1,19 strains,MIC50,,1 µg/mL
CO[C@@]1(NC(=O)Cc2cccs2)C(=O)N2C(C(=O)O)=C(COC(N)=O)CS[C@@H]21,18 strains,MIC90,,≥64 µg/mL
CNCC1CCN(c2nc3c(cc2F)c(=O)c(C(=O)O)cn3C2CC2)C1,ATCC 6841,MIC,,0.13 µg/mL
CN1C(=O)C(=O)N(C)C1=[Se],CA10,MIC,,25 µg/mL
CC(=O)O[C@H]1C[C@@]2(C)[C@@H](C[C@@H](O)[C@H]3[C@@]4(C)CC[C@@H](O)[C@@H](C)[C@@H]4CC[C@@]32C)/C1=C(\CCC=C(C)C)C(=O)O,19 strains,MIC90,,>128 µg/mL
CC1COc2c(N3CCN(C)CC3)c(F)cc3c(=O)c(C(=O)O)cn1c23,,MIC50,,0.2–1.2 µg/mL
CCn1cc(C(=O)O)c(=O)c2cc(F)c(N3CCNCC3)cc21,80 strains,MIC50,,1 µg/mL
O=C(O)c1cn(C2CC2)c2c(Cl)c(N3CCNCC3)c(F)cc2c1=O,ATCC 6841,MIC,,0.06 µg/mL
CO[C@H]1/C=C/O[C@@]2(C)Oc3c(C)c(O)c4c(O)c(c(/C=N/N5CCN(C)CC5)c(O)c4c3C2=O)NC(=O)/C(C)=C\C=C\[C@H](C)[C@H](O)[C@@H](C)[C@@H](O)[C@@H](C)[C@H](OC(C)=O)[C@@H]1C,,MIC50,,>8 µg/mL
COc1c(N2CCNC(C)C2)c(F)cc2c(=O)c(C(=O)O)cn(-c3ccc(F)cc3F)c12,ATCC 6841,MIC,,1 µg/mL
Nc1ccc(C(=O)O)c(O)c1,22 strains,EC50,agar,>10 µg/mL
CCC(C)N1CCN(c2cc(=O)c3nc4c(oc3c2)c2c(=O)c3c(O)c(C)c5c(c34)=C(O)[C@@](C)(O/C=C/[C@H](OC)[C@@H](C)[C@@H](OC(C)=O)[C@H](C)[C@H](O)[C@H](C)[C@@H](O)[C@@H](C)/C=C/C=C(/C)C(=O)N2)O5)CC1,20 strains,MIC90,,>100 µg/mL
CC[C@H]1OC(=O)[C@H](C)[C@@H](O[C@H]2C[C@@](C)(OC)[C@@H](O)[C@H](C)O2)[C@H](C)[C@@H](O[C@@H]2O[C@H](C)C[C@H](N(C)C)[C@H]2O)[C@](C)(O)C[C@@H](C)/C(=N\OCOCCOC)[C@H](C)[C@@H](O)[C@]1(C)O,48 strains,MIC90,,>64 µg/mL
CCn1cc(C(=O)O)c(=O)c2cc(F)c(N3CCNCC3)nc21,19 strains,MIC50,,0.5 µg/mL
C[C@@H]1CN(c2c(F)c(N)c3c(=O)c(C(=O)O)cn(C4CC4)c3c2F)C[C@H](C)N1,,MIC90,,1.5 µg/mL

Repeating the first 4 entries:

| smiles | strain or isolate | measure | read by | result |
|---|---|---|---|---|
| N/C(=N\N=C\c1cccc2ccccc12)c1ccccn1 |  | EC50 |  | >1000 µM |
| CC[C@H]1OC(=O)[C@H](C)C(=O)[C@H](C)[C@@H](O[C@@H]2O[C@H](C)C[C@H](N(C)C)[C@H]2O)[C@](C)(OC)C[C@@H](C)C(=O)[C@H](C)[C@H]2N(CCCCn3cnc(-c4cccnc4)c3)C(=O)O[C@]12C | 48 strains | MIC90 |  | >64 µg/mL |
| CN1CCN(c2cc3c(cc2F)c(=O)c(C(=O)O)cn3-c2ccc(F)cc2)CC1 | 10 strains | MIC |  | 2 µg/mL |
| CCC(C)(C)c1ccc(/C=N/N=C(\N)c2ccccn2)cc1 |  | MIC |  | 6–12.5 µg/mL |

ECn: concentration that inhibits the pathogen or its effect by n%. A number after MIC or MFC names an inhibition level or a share of isolates. Lines come from different laboratories, so protocols vary. An empty or dashed field is not shown.